A mixed list of measured activities; the numbers were collected in NIAID ChemDB.

Shared fields: growth or infection tests

MIC50, MIC90 and the like: level of inhibition, or share of isolates inhibited. ECn: concentration that inhibits the pathogen or its effect by n%. Percent inhibition refers to the dose given; in toxicity tests it is the harm to the cells. Rows are shuffled and stem from different studies. Two numbers with a dash give a range or band. An empty or dashed field is not shown.

SMILES	species	strain	cell line	read by	endpoint	dose	result
O=C(NCc1ccccc1-c1ncc[nH]1)c1c2n(c(=O)n1-c1ccc(OC3CC3)cc1)CCN(C(=O)c1ccc(Br)c(Cl)c1)C2	Hepatitis B virus	-	HepG2.117	PCR	EC50	-	<0.1 µM
CCOC(=O)c1c(C)nc(NCCCCNc2ccnc3cc(Cl)ccc23)nc1-c1ccc(F)cc1	Cryptococcus neoformans	VM-MCMMPI	-	-	MIC99	-	8 µg/mL
Nc1ccc2cc(S(=O)(=O)O)cc(S(=O)(=O)O)c2c1	Herpes simplex virus	-	Human conjunctiva cells	cytopathic effect	inhibition	5 µg/mL	0%
CC[C@@H](NC(=O)c1c2n(c(=O)n1-c1ccc(OC)cc1)CCN(C(=O)c1ccc(Br)c(Cl)c1)C2)c1ccccc1	Hepatitis B virus	-	HepG2.117	PCR	EC50	-	0.1–0.5 µM
CCc1cn([C@@H]2O[C@H](CO)[C@@H](O)[C@@H]2O)c(=O)[nH]c1=O	Varicella zoster virus	HIRAI	HELF	plaque count	inhibition	10 µg/mL	0%
CCOC(=O)c1c(C)nc(OCCCNc2ccnc3cc(Cl)ccc23)nc1-c1ccccc1	Cryptococcus gattii	L-28/02	-	-	MIC99	-	8 µg/mL
Nc1nc2c(ncn2COC(CO)CO)c(=O)[nH]1	Human cytomegalovirus	VR4990 (ganciclovir-resistant)	-	plaque count	EC90	-	33.7 µM
Nc1c(S(=O)(=O)[O-])cc2cc(S(=O)(=O)[O-])ccc2c1O	Adenovirus	TYPE 3	Human amnion AV3 cells	cytopathic effect	inhibition	10 µg/mL	0%
Oc1ccccc1N=Cc1ccc2c(c1)OCO2	Cryptococcus gattii	L 27/01	-	-	MIC99	-	45.3 µg/mL
CCC(CC)O[C@@H]1C=C(C(=O)O)C[C@H](N)[C@H]1NC(C)=O	Influenza A virus	H1N1 A/Beijing/262/95	MDCK	visual reading	EC50	-	1.3 µM
C/C=C\[C@@H]1C[C@H](C(=O)O)N[C@H]1[C@@H](NC(C)=O)[C@](C)(CCC)OC	Influenza A virus	H1N1 isolate C23C	MDCK	plaque count	EC50	-	≤1.5 µg/mL
CC(C)Oc1ccc(-n2c(C(=O)NCc3ccccc3)c3n(c2=O)CCN(C(=O)c2ccc(Br)nc2)C3)cc1	Hepatitis B virus	-	HepG2.117	PCR	EC50	-	>5 µM
O=S(=O)(O)c1ccc2cc(O)c(S(=O)(=O)O)cc2c1	Herpes simplex virus	-	Human amnion AV3 cells	cytopathic effect	inhibition	50 µg/mL	0%
O=C(NCc1ccc(Cl)cc1)c1c[nH]c2c(F)cccc2c1=O	Varicella zoster virus	KLE	-	plaque count	EC50	-	0.7 µM
Nc1nc2c(ncn2COCCO)c(=O)[nH]1	Varicella zoster virus	YS	HELF	plaque count	inhibition	10 µg/mL	100%
CCOC(=O)/C=C/[C@H](C[C@@H]1CCNC1=O)NC(=O)[C@@H](CC(=O)[C@@H](NC(=O)c1cc(C)on1)C(C)C)Cc1ccc(F)cc1	Rhinovirus	Isolate 2	OHIO HELA-I	cytopathic effect / visual reading	EC50	-	0.01 µg/mL
CCOC(=O)c1ccc(OCCC2CCN(c3ccc(C)nn3)CC2)cc1	Rhinovirus	211-CV13 (ICAM-1 receptor group 9)	KB	neutral red	EC50	-	0.022 µM
Oc1ccc(O)c(C=Nc2ccccc2O)c1	Cryptococcus gattii	23/10993	-	-	MIC99	-	11.3 µg/mL
O=c1[nH]c(=O)n([C@H]2C[C@H](O)[C@@H](CO)O2)cc1I	Varicella zoster virus	YS	HELF	plaque count	inhibition	1 µg/mL	57%
O=[N+]([O-])c1ccc(C=Nc2ccccc2O)cc1	Cryptococcus neoformans	28JF	-	-	MIC99	-	11.3 µg/mL
O=c1[nH]c(=O)n([C@H]2C[C@H](O)[C@@H](CO)O2)cc1/C=C/Br	Varicella zoster virus	YS	HELF	plaque count	inhibition	0.01 µg/mL	48%
C=CCc1ccc(O)c(OC)c1	Candida tropicalis	3219	-	turbidity	MIC90	-	500 µg/mL
NCS(=O)(=O)O	Herpes simplex virus	-	Human conjunctiva cells	cytopathic effect	inhibition	5 µg/mL	0%
O=c1[nH]c(=O)n([C@@H]2O[C@H](CO)[C@@H](O)[C@@H]2O)cc1/C=C/Br	Varicella zoster virus	HIRAI	HELF	plaque count	inhibition	0.0001 µg/mL	28%
Nc1c(S(=O)(=O)O)cc2cc(S(=O)(=O)O)cc(O)c2c1O	Herpes simplex virus	-	Human amnion AV3 cells	cytopathic effect	inhibition	10 µg/mL	0%
COc1ccc([C@H](C)NC(=O)c2c3n(c(=O)n2-c2ccc(OC)cc2)CCN(C(=O)c2ccc(Br)c(Cl)c2)C3)cc1	Hepatitis B virus	-	HepG2.117	PCR	EC50	-	<0.1 µM
Nc1ccc2cc([N+](=O)[O-])cc(S(=O)(=O)[O-])c2c1	Herpes simplex virus	-	Human conjunctiva cells	cytopathic effect	inhibition	5 µg/mL	0%
CCOC(=O)c1c(C)nc(NCCCNc2ccnc3cc(Cl)ccc23)nc1-c1ccccc1	Cryptococcus gattii	196L/03	-	-	MIC99	-	8 µg/mL